Measured values from several laboratories, pooled; numbers as filed in NIAID ChemDB.

Common to all: whole-cell or culture tests; organism: HIV-1

ECn: concentration that inhibits the pathogen or its effect by n%. Neighbouring rows are from separate reports. Blank or dashed fields: not listed here.

SMILES,method,changes,read-out,cells,strain,result
Cc1ccnc2c1NC(=O)c1cccnc1N2C1CC1,p24 / ELISA,Y181C,EC50,C8166,NL4-3,3.32 µM
Cc1ccc(S(=O)(=O)N(CC(C)C)C[C@@H](O)[C@H](Cc2ccccc2)NC(=O)O[C@H]2CO[C@H]3OCC[C@H]32)cc1,ATP,8374-P62,EC50,MT-2,IIIB,0.0138 µM
Cn1c2ccccc2c2c1cc(C#N)c(=O)n2-c1ccc([N+](=O)[O-])cc1,luciferase,RT-M41L V118I M184V,EC50,HeLa,Recombinant,0.44 µM
O=C1CN=C(c2ccc[nH]2)c2cc(Cl)ccc2N1,virus yield,-,EC50,HUT-78/IIIB/LAI + HUT 78,IIIB/LAI,1 µM
Cc1cc(C#CC2CC2)cc(C)c1Oc1ccnc(Nc2ccc(C#N)cc2)n1,MTT,Y188L,EC50,MT-4,IIIB,0.368 µM
O=C(Nc1cc(S(=O)(=O)O)cc2cc(S(=O)(=O)O)c(N=Nc3ccc(N=Nc4c(S(=O)(=O)O)cc5cc(S(=O)(=O)O)cc(NC(=O)c6cccc(Cl)c6Cl)c5c4O)cc3)c(O)c12)c1ccc(Cl)cc1Cl,-,-,EC90,PBMC,A018A,3.16 µg/mL
Cc1cc(S(N)(=O)=O)ccc1NC(=O)COc1ccc(Cl)cc1C(=O)c1cc(Cl)cc(C#N)c1,β-galactosidase,RT-Y188L,EC50,MAGI,NNRTI-resistant (RT Y188L),0.021 µM
CC(C)=CCN1Cc2cccc3[nH]c(=S)n(c23)C[C@@H]1C,cytopathic effect / XTT,RT-P236L,EC50,CEM + CEM-SS,IIIB HEPT-resistant (RT P236L),0.1 µM
Cc1cn([C@H]2C[C@H](N=[N+]=[N-])[C@@H](CO)O2)c(=O)[nH]c1=O,luciferase,RT-K65R,EC50,HeLa,NRTI resistant,0.0098 µM
O=C1N(Cc2ccc(CO)cc2)[C@H](Cc2ccccc2)[C@H](O)[C@@H](O)[C@@H](Cc2ccccc2)N1Cc1ccc(CO)cc1,p24,-,EC50,PBMC,Clinical isolate K,0.05 µM
CC(=O)N1CCC(C(=O)N(CCCN2CCC(Cc3ccc(C(N)=O)cc3)CC2)c2ccc(C)c(Cl)c2)CC1,p24,-,EC50,PBMC,KK R5 clinical isolate,0.0012 µM
Cc1cn([C@H]2C=C[C@@H](CO)O2)c(=O)[nH]c1=O,luciferase,RT-M184V,EC50,HeLa,Recombinant,1.59 µM
COC(=O)N[C@H](C(=O)N[C@@H](Cc1ccccc1)[C@@H](O)CN(Cc1ccc(-c2ccccn2)cc1)NC(=O)[C@@H](NC(=O)OC)C(C)(C)C)C(C)(C)C,p24 / ELISA,K112M K113E V128I M200I H219P I401T R409K D437N L441P,EC50,MT-2,IIIB,0.0033 µM
Cc1cn([C@H]2C[C@H](N=[N+]=[N-])[C@@H](CO)O2)c(=O)[nH]c1=O,cytopathic effect / XTT,RT-P236L,EC50,CEM + CEM-SS,IIIB HEPT-resistant (RT P236L),0.006 µM
Cc1cc(C#Cc2ccccn2)cc(C)c1Oc1ccnc(Nc2ccc(C#N)cc2)n1,MTT,K103N,EC50,MT-4,IIIB,0.073 µM
Nc1nc(=O)n([C@@H]2CS[C@H](CO)O2)cc1F,p24 / ELISA,K65R,EC50,Primary T lymphocytes,-,0.5 µM
CO[P@](=O)(c1cc(C)cc(/C=C/C#N)c1)c1c(C(N)=O)[nH]c2ccc(Cl)cc12,-,Y181C,EC50,MT-4,IIIB,0.0021 µM
CC(C)=CCN1Cc2cc(Cl)cc3[nH]c(=S)n(c23)C[C@@H]1C,-,RT-L74V K103N,EC95,MT-4,-,>3 µM
Nc1ccn([C@@H]2CS[C@H](CO)O2)c(=O)n1,RT activity,RT-M41L T69ins L74V M184V L210W T215Y,EC50,PBMC,52534-2 NRTI resistant recombinant,>10 µM
Cc1cn([C@H]2C[C@H](N=[N+]=[N-])[C@@H](CO)O2)c(=O)[nH]c1=O,p24 / ELISA,I401T R409K D437N,EC50,MT-2,IIIB,0.153 µM
Cc1cn([C@H]2C[C@H](N=[N+]=[N-])[C@@H](CO)O2)c(=O)[nH]c1=O,p24 / ELISA,M184V,EC50,Primary T lymphocytes,-,0.01 µM
COC(=O)[C@H](C)NP(=O)(OC[C@@H]1C=C[C@H](n2cc(C)c(=O)[nH]c2=O)O1)Oc1ccc(Br)cc1,p24,RT-M41L L210W T215Y,EC50,PBMC,Q252-2 NRTI resistant,0.0019 µM
O=S(=O)(c1ccccc1)c1ccccc1,cytopathic effect / XTT,RT-P236L,EC50,CEM + CEM-SS,IIIB HEPT-resistant (RT P236L),9.5 µM
Nc1nc(=O)n([C@@H]2CS[C@H](CO)O2)cc1F,single cycle / fluorescence,M184V,EC50,PBMC,Clinical isolate,>42 µM
Cc1cn([C@H]2C[C@H](N=[N+]=[N-])[C@@H](CO)O2)c(=O)[nH]c1=O,RT activity,-,EC50,PBMC,SLKA(SI),0.02 µM
S=C(NCCc1cccs1)Nc1ccc(Br)cn1,plaque count,-,EC50,HT4 + HeLa,H292-1 Clinical isolate,0.066 µM
CCCc1cc(=O)oc2c3c(c4c(c12)OC(C)(C)C=C4)O[C@@H](C)[C@H](C)[C@@H]3O,p24,-,EC50,MM + M/M,BaL,0.01 µM
Cc1cc(C#Cc2cccc(N)c2)cc(C)c1Oc1ccnc(NC2CCN(Cc3ccc(S(N)(=O)=O)cc3)CC2)n1,MTT,L100I,EC50,MT-4,IIIB,0.14 µM
CC(C)c1nc(CN(C)C(=O)N[C@H](C(=O)N[C@@H](Cc2ccccc2)C[C@H](O)[C@H](Cc2ccccc2)NC(=O)OCc2cncs2)C(C)C)cs1,p24,-,EC50,MT-4,NL4-3,<0.05 µM
N#CC[C@H](C1CCCC1)n1cc(-c2ncnc3[nH]ccc23)cn1,p24 / ELISA,4xAZT,EC50,Primary T lymphocytes,-,0.09 µM
CCc1c(Sc2ccccn2)n(COCc2ccccc2)c(=O)[nH]c1=O,cytopathic effect / XTT,RT-V179D,EC50,CEM + CEM-SS,NL4-3,0.14 µM
Cc1occc1C(=S)Nc1ccc(Cl)c(/C=N/OC(C)(C)C)c1,cytopathic effect / XTT,RT-L100I,EC50,CEM + CEM-SS,Dihydrocostatolide-resistant (RT-L100I),1 µM
Cc1cc(C#Cc2cccc(N)c2)cc(C)c1Oc1ccnc(NC2CCN(Cc3ccc(C#N)cc3)CC2)n1,MTT,RES056,EC50,MT-4,IIIB,>0.261 µM
CCCc1cc(=O)oc2c3c(c4c(c12)OC(C)(C)C=C4)O[C@H](C)[C@@H](C)[C@@H]3O,XTT,-,EC50,CEM + CEM-SS,IIIB,0.08 µM
C[C@H](Cn1cnc2c(N)ncnc21)OCP(=O)(O)O,p24,-,EC50,PBMC,62J,0.1 µM
CC(C)(C)NC(=O)[C@@H]1CN(Cc2cccnc2)CCN1C[C@@H](O)C[C@@H](Cc1ccccc1)C(=O)N[C@H]1c2ccccc2C[C@H]1O,p24,RT-M41L E44D D67N T69D Y118I M184V L210W T215Y,EC50,PBMC,4755-5 NRTI resistant recombinant,0.0094 µM
O=C(O)P(=O)(O)O,p24,-,EC50,PBMC,8618 CLADE B CLADE B,11 µM
Cc1ccnc2c1NC(=O)c1cccnc1N2C1CC1,cytopathic effect / XTT,-,EC50,AA5,IIIB,0.7 µM

Repeating the first 5 entries:

SMILES | method | changes | read-out | cells | strain | result
Cc1ccnc2c1NC(=O)c1cccnc1N2C1CC1 | p24 / ELISA | Y181C | EC50 | C8166 | NL4-3 | 3.32 µM
Cc1ccc(S(=O)(=O)N(CC(C)C)C[C@@H](O)[C@H](Cc2ccccc2)NC(=O)O[C@H]2CO[C@H]3OCC[C@H]32)cc1 | ATP | 8374-P62 | EC50 | MT-2 | IIIB | 0.0138 µM
Cn1c2ccccc2c2c1cc(C#N)c(=O)n2-c1ccc([N+](=O)[O-])cc1 | luciferase | RT-M41L V118I M184V | EC50 | HeLa | Recombinant | 0.44 µM
O=C1CN=C(c2ccc[nH]2)c2cc(Cl)ccc2N1 | virus yield | - | EC50 | HUT-78/IIIB/LAI + HUT 78 | IIIB/LAI | 1 µM
Cc1cc(C#CC2CC2)cc(C)c1Oc1ccnc(Nc2ccc(C#N)cc2)n1 | MTT | Y188L | EC50 | MT-4 | IIIB | 0.368 µM